Patent US20100143886A1, “IN VIVO HCV RESISTANCE TO ANTI-VIRAL INHIBITORS” (priority 2007, published 2010)

Legend:
Assay type in all cases: in vivo
HCV genotype 3a = test: AUGER quantification of S282T virus, chimpanzee dosed with Compound A (Example 3); conditions: 2 mg per kg IV for 7 days
HCV genotype 1a [1] = test: AUGER analysis: % R155K and % D168T virus, chimpanzee x120 re-dosed with Compound B (Example 2); conditions: re-dosing oral 10 mg per kg q.d. for 7 days
HCV genotype 1a [2] = test: Population sequencing and molecular clone sequencing of NS3/4a cDNA (Example 2); conditions: chimpanzee x120 re-dosed oral 10 mg per kg q.d. 7 days
[3] = 0 Days (8 hours after initial dose)

C[C@@]1(O)[C@H](O)[C@@H](CO)O[C@H]1n1ccc2c(N)ncnc21 [Compound A]
virus resistant to the polymerase inhibitor (S282T) in early rebound populations (HCV genotype 3a; 7 and 10 days upon cessation of dosing (days 13 and 16 of the study)): emerged | virus resistant to the polymerase inhibitor (S282T) in circulating population (HCV genotype 3a; 13 days post-dosing (day 19 of the study)): disappeared from the circulating population

CC[C@@H]1C[C@]1(NC(=O)[C@@H]1C[C@@H]2CN1C(=O)[C@H](C(C)(C)C)NC(=O)OCC(C)(C)CCCCc1cccc3c1CN(C3)C(=O)O2)C(=O)NS(=O)(=O)C1CC1 [Compound B]
AUGER Analysis: Chimp x120 % D168T (HCV genotype 1a [1]; [3]): 0.8% | AUGER Analysis: Chimp x120 % R155K (HCV genotype 1a [1]; [3]): 0.1% | AUGER Analysis: Chimp x120 % D168T (HCV genotype 1a [1]; 2 Days): 0.6% | AUGER Analysis: Chimp x120 % R155K (HCV genotype 1a [1]; 2 Days): 98% | AUGER Analysis: Chimp x120 % D168T (HCV genotype 1a [1]; 5 Days): 53% | AUGER Analysis: Chimp x120 % R155K (HCV genotype 1a [1]; 5 Days): 48% | AUGER Analysis: Chimp x120 % D168T (HCV genotype 1a [1]; 7 Days): 0.4% | AUGER Analysis: Chimp x120 % R155K (HCV genotype 1a [1]; 7 Days): 89% | AUGER Analysis: Chimp x120 % D168T (HCV genotype 1a [1]; 10 Days): 0.3% | AUGER Analysis: Chimp x120 % R155K (HCV genotype 1a [1]; 10 Days): 61% | AUGER Analysis: Chimp x120 % D168T (HCV genotype 1a [1]; 14 Days (7 days post-dosing)): 0.4% | AUGER Analysis: Chimp x120 % R155K (HCV genotype 1a [1]; 14 Days (7 days post-dosing)): 36% | AUGER Analysis: Chimp x120 % D168T (HCV genotype 1a [1]; −1 Days (before re-dosing)): 0.9% | AUGER Analysis: Chimp x120 % R155K (HCV genotype 1a [1]; −1 Days (before re-dosing)): 0.1% | AUGER Analysis: Chimp x120 % D168T (HCV genotype 1a [1]; −7 Days (before re-dosing)): 1.4% | AUGER Analysis: Chimp x120 % R155K (HCV genotype 1a [1]; −7 Days (before re-dosing)): 0.2% | major genetic change by population sequencing (HCV genotype 1a [2]; day 2 and rebounding viral population): homogenous R155K change (AGG to AAG) | population sequence at codon 155 (HCV genotype 1a [2]; day 5 sample): heterogenous R155K | population sequence at codon 168 (HCV genotype 1a [2]; day 5 sample): heterogenous at both the first (G/A) and second positions (A/C) of codon 168 | genotypes encoded by 19 molecular clones (HCV genotype 1a [2]; day 5 sample, one clone wild-type at both positions): either R155K and wild-type at 168, or wild-type at 155 and D168T
